Compound potency records, mixed from different reports. Data source: NIAID ChemDB in PubChem.

All rows: enzyme or target tests

Two numbers with a dash give a range or band.

CC(CC(=O)O)NC(=O)COC(C)(C)C#Cc1ccc(NC(=O)CSc2nnnn2-c2ccc(C(C)(C)C)cc2Cl)c(Cl)c1 ; target: Reverse transcriptase ; measure: IC50 ; species: HIV-1 ; mutations: RT-K103 Y181C ; read by: PicoGreen / fluorescence ; result: <1 µM
CC(C)(C)OC(=O)N[C@@H](CO)C(=O)N[C@@H](Cc1ccccc1)[C@@H](O)C(=O)NCC1CCCCC1 ; target: Protease ; measure: IC50 ; species: HIV-1 ; result: >1000 µM
Cn1cccc1C(=O)Nc1cn2ccn(Cc3cccc(Cl)c3)c(=O)c2c(O)c1=O ; target: Integrase ; measure: IC50 ; species: HIV-1 ; read by: ELISA ; result: <0.01 µM
C#Cc1ccc(NC(=O)CSc2nnnn2-c2ccc(C(C)(C)C)cc2Cl)c(Cl)c1 ; target: Reverse transcriptase ; strain: WT ; measure: IC50 ; species: HIV-1 ; read by: PicoGreen / fluorescence ; result: <1 µM
CC(C)(CCCCNC(=O)c1cc(F)cc(F)c1)CN(C[C@@H](O)[C@H](Cc1ccccc1)NC(=O)O[C@H]1CO[C@H]2OCC[C@H]21)S(=O)(=O)c1ccc2c(c1)OCO2 ; target: Protease ; measure: Ki ; species: HIV-1 ; read by: fluorescence ; result: <0.001 µM
Nc1ccn([C@@H]2CS[C@H](COP(=O)(O)OP(=O)(O)OP(=O)(O)O)O2)c(=O)n1 ; target: Reverse transcriptase ; measure: Ki ; species: HIV ; mutations: RT-L74V K103N ; read by: radiometric ; result: 0.15 µM
CC(C)(C#Cc1ccc(NC(=O)CSc2nnnn2-c2ccc(C3CC3)cc2Cl)c(Cl)c1)COC(N)=O ; target: Reverse transcriptase ; strain: WT ; measure: IC50 ; species: HIV-1 ; read by: PicoGreen / fluorescence ; result: <1 µM
CCS(=O)(=O)NCCCC(C)(C)CN(C[C@@H](O)[C@H](Cc1ccccc1)NC(=O)O[C@H]1CO[C@H]2OCC[C@H]21)S(=O)(=O)c1ccc2c(c1)OCO2 ; target: Protease ; measure: Ki ; species: HIV-1 ; read by: fluorescence ; result: <0.001 µM
CC(C)(C)c1ccc(-n2nnnc2SCC(=O)Nc2ccc(NC(=O)c3ccccc3O)cc2Cl)c(Cl)c1 ; target: Reverse transcriptase ; strain: WT ; measure: IC50 ; species: HIV-1 ; read by: PicoGreen / fluorescence ; result: <1 µM
CCOCn1c(Sc2ccccc2)c(CC)c(=O)[nH]c1=O ; target: Reverse transcriptase ; measure: IC50 ; species: HIV ; mutations: RT-V60T ; read by: nucleotide incorporation ; result: 0.321 µM
CCCCOC(=O)NCCCCCC(C)(C)CN(C[C@@H](O)[C@H](Cc1ccccc1)NC(=O)O[C@H]1CO[C@H]2OCC[C@H]21)S(=O)(=O)c1ccc2c(c1)OCO2 ; target: Protease ; measure: Ki ; species: HIV-1 ; read by: fluorescence ; result: <0.001 µM
CC(C)(C)c1cc(=O)c(O)c2n1CCN(Cc1ccc(Cl)c(Cl)c1)C2=O ; target: Integrase ; measure: IC50 ; species: HIV-1 ; read by: ELISA ; result: 0.01–0.1 µM
CC(C)(CCCN)CN(C[C@@H](O)[C@H](Cc1ccccc1)NC(=O)O[C@H]1CO[C@H]2OCC[C@H]21)S(=O)(=O)c1cccc(N)c1 ; target: Protease ; measure: Ki ; species: HIV-1 ; read by: fluorescence ; result: <0.001 µM
CC(C)(C)c1ccc(-n2nnnc2SCC(=O)Nc2ccc(C(=O)Nc3cccc4cccnc34)cc2Cl)c(Cl)c1 ; target: Reverse transcriptase ; measure: IC50 ; species: HIV-1 ; mutations: RT-K103 Y181C ; read by: PicoGreen / fluorescence ; result: <1 µM
CC(C)(CCCCN=C(N)NC#N)CN(C[C@@H](O)[C@H](Cc1ccccc1)NC(=O)O[C@H]1CO[C@H]2OCC[C@H]21)S(=O)(=O)c1ccc2c(c1)OCO2 ; target: Protease ; measure: Ki ; species: HIV-1 ; read by: fluorescence ; result: <0.001 µM
C[S+](C)C[C@H](NC(=O)COc1cccc2ccccc12)C(=O)N[C@@H](Cc1ccccc1)[C@H](O)C(=O)N1CSC(C)(C)[C@H]1C(=O)NC(C)(C)C ; target: Protease ; measure: inhibition ; species: HIV-1 ; dose: 0.05 µM ; result: 68%
CC(C)(C)c1ccc(-n2nnnc2SCC(=O)Nc2ccc(NC(=O)Cc3ccccc3)cc2Cl)c(Cl)c1 ; target: Reverse transcriptase ; measure: IC50 ; species: HIV-1 ; mutations: RT-K103 Y181C ; read by: PicoGreen / fluorescence ; result: <1 µM
CC(C)(CCCCNC(=O)C1CCCC1)CN(C[C@@H](O)[C@H](Cc1ccccc1)NC(=O)O[C@H]1CO[C@H]2OCC[C@H]21)S(=O)(=O)c1ccc2c(c1)OCO2 ; target: Protease ; measure: Ki ; species: HIV-1 ; read by: fluorescence ; result: <0.001 µM
O=c1c(-c2cccc(Cl)c2)cn2ccn(Cc3cccc(Cl)c3)c(=O)c2c1O ; target: Integrase ; measure: IC50 ; species: HIV-1 ; read by: ELISA ; result: 0.01–0.1 µM
CCCC#Cc1ccc(NC(=O)CSc2nnnn2-c2ccc(C(C)(C)C)cc2Cl)c(Cl)c1 ; target: Reverse transcriptase ; strain: WT ; measure: IC50 ; species: HIV-1 ; read by: PicoGreen / fluorescence ; result: <1 µM
CCCNC(=S)NCCC(C)(C)CN(C[C@@H](O)[C@H](Cc1ccccc1)NC(=O)O[C@H]1CO[C@H]2OCC[C@H]21)S(=O)(=O)c1ccc2c(c1)OCO2 ; target: Protease ; measure: Ki ; species: HIV-1 ; read by: fluorescence ; result: <0.001 µM
CS(=O)(=O)C[C@H](NC(=O)COc1cccc2ccccc12)C(=O)N[C@@H](Cc1ccccc1)[C@H](O)C(=O)N1CCC[C@H]1C(=O)Nc1cccc(O)c1 ; target: Protease ; measure: inhibition ; species: HIV-1 ; dose: 0.05 µM ; result: 11.1%
C=C(C)C#Cc1ccc(NC(=O)CSc2nnnn2-c2ccc(C3CC3)cc2Cl)c(Cl)c1 ; target: Reverse transcriptase ; measure: IC50 ; species: HIV-1 ; mutations: RT-K103 Y181C ; read by: PicoGreen / fluorescence ; result: <1 µM
CC(C)(CCCCNS(C)(=O)=O)CN(C[C@@H](O)[C@H](Cc1ccccc1)NC(=O)OC1COCOC1)S(=O)(=O)c1ccc(N)cc1 ; target: Protease ; measure: Ki ; species: HIV-1 ; read by: fluorescence ; result: <0.001 µM
O=C(CSc1nnnn1-c1ccc(C2CC2)cc1Cl)Nc1ccc(C(=O)NS(=O)(=O)c2ccccc2)cc1Cl ; target: Reverse transcriptase ; measure: IC50 ; species: HIV-1 ; mutations: RT-K103 Y181C ; read by: PicoGreen / fluorescence ; result: <1 µM
CC(C)C(=O)NCCCCC(C)(C)CN(C[C@@H](O)[C@H](Cc1ccccc1)NC(=O)O[C@H]1CO[C@H]2OCC[C@H]21)S(=O)(=O)c1ccc2c(c1)OCO2 ; target: Protease ; measure: Ki ; species: HIV-1 ; read by: fluorescence ; result: <0.001 µM
CC(C)(C)NC(=O)[C@H]1N(C(=O)[C@@H](O)[C@H](Cc2ccccc2)NC(=O)[C@H](CC(N)=O)NC(=O)COc2ccc(-c3ccccc3)cc2)CSC1(C)C ; target: Protease ; measure: inhibition ; species: HIV-1 ; dose: 0.05 µM ; result: 98%
CC(C)(CCN=C(NC#N)Oc1ccccc1)CN(C[C@@H](O)[C@H](Cc1ccccc1)NC(=O)O[C@H]1CO[C@H]2OCC[C@H]21)S(=O)(=O)c1ccc2c(c1)OCO2 ; target: Protease ; measure: Ki ; species: HIV-1 ; read by: fluorescence ; result: <0.001 µM
CC(C)(C)NC(=O)[C@@H]1CSCN1C(=O)[C@@H](O)[C@H](Cc1ccccc1)NC(=O)[C@H](CS(C)(=O)=O)NC(=O)CNc1cccc2ccccc12 ; target: Protease ; measure: inhibition ; species: HIV-1 ; dose: 0.05 µM ; result: 71.8%
CC(C)(CCCCOC(=O)NCCO)CN(C[C@@H](O)[C@H](Cc1ccccc1)NC(=O)O[C@H]1CO[C@H]2OCC[C@H]21)S(=O)(=O)c1ccc2c(c1)OCO2 ; target: Protease ; measure: Ki ; species: HIV-1 ; read by: fluorescence ; result: <0.001 µM
CC(=O)NC(C)(C)C#Cc1ccc(NC(=O)CSc2nnnn2-c2cc(C(F)(F)F)ccc2Cl)c(Cl)c1 ; target: Reverse transcriptase ; measure: IC50 ; species: HIV-1 ; mutations: RT-K103 Y181C ; read by: PicoGreen / fluorescence ; result: <1 µM
CC(C)(C)NC(=O)[C@@H]1CSCN1C(=O)[C@@H](O)[C@H](Cc1ccccc1)NC(=O)[C@H](CS(C)(=O)=O)NC(=O)c1ccccc1-c1ccccc1 ; target: Protease ; measure: inhibition ; species: HIV-1 ; dose: 5 µM ; result: >90%
CC(C)(C#Cc1ccc(NC(=O)CSc2nnnn2-c2ccc(CC3CC3)cc2Cl)c(Cl)c1)NC(=O)c1cc[n+]([O-])cc1 ; target: Reverse transcriptase ; measure: IC50 ; species: HIV-1 ; mutations: RT-K103 Y181C ; read by: PicoGreen / fluorescence ; result: <1 µM
O=C1c2c(O)c(=O)cc(-c3ccccc3)n2CCN1Cc1ccc(Cl)c(Cl)c1 ; target: Integrase ; measure: IC50 ; species: HIV-1 ; read by: ELISA ; result: 0.01–0.1 µM
CC(C)(C#Cc1ccc(NC(=O)CSc2nnnn2-c2ccc(C(C)(C)C)cc2Cl)c(Cl)c1F)C(=O)O ; target: Reverse transcriptase ; strain: WT ; measure: IC50 ; species: HIV-1 ; read by: PicoGreen / fluorescence ; result: <1 µM
COc1ccc(S(=O)(=O)N(C[C@@H](O)[C@H](Cc2ccccc2)NC(=O)O[C@H]2CO[C@H]3OCC[C@H]32)CC(C)(C)CCCN=[N+]=[N-])cc1 ; target: Protease ; measure: Ki ; species: HIV-1 ; read by: fluorescence ; result: <0.001 µM

Inhibition is in % at the dose shown (toxicity tests: loss of growth or viability). ICn: concentration for n% inhibition. Neighbouring rows are from separate reports.